Patent US12378521B2, “Method for enhancing production of genetically engineered autologous T cells” (AMGEN INC., priority 2020, dated 2025)

Test system: apheresed donor cells
Experiment: Cell growth and viability, IL-2 withdrawal (Example 8)
Type: cell-based, human
Conditions: IL-2 withdrawal at Day 5 and Day 6

IL-2: soluble cytokine, 300 IU/ml in OpTmizer complete media
Cell growth and viability: minimal or no impact on cell growth or viability
